Results of unrelated studies side by side (data: NIAID ChemDB).

All rows: toxicity to cultured cells; cells: VERO; measure: CC50

Lines come from different laboratories, so protocols vary. Blank or dashed fields: not listed here. CCn is the concentration with n% toxicity to the cells.

COc1c2c(cc3ccoc13)C(=O)[C@@]1(O)c3cc4c(cc3OC[C@H]1O2)OCO4 ; value: 50 µg/mL
O=C1C=C(Nc2ccccc2N=C2C(N3C4=CCc5ccccc5C4=Nc4ccccc43)=CC(=O)c3ccccc32)C(=O)c2ccccc21 ; value: >62.5 µg/mL
CCOC(=O)P(=O)(O)OC[C@H]1S[C@@H](n2cc(CC)c(=O)[nH]c2=O)C[C@@H]1O ; value: >1200 µM
CCOc1ccc(NC(=S)Nc2ccc(/C(C)=N/NC(=O)c3ccncc3)cc2)cc1 ; value: 144 µM
N=C(N)N=C1/C(=C/c2ccco2)CNC/C1=C\c1ccco1 ; method: MTT ; value: 388 µg/mL
Cc1cc2c(cc1O)[nH]c1ccccc12 ; value: 36 µM
CC(Oc1ccc(-c2nc(N)nc(N)n2)cc1)c1ccc(Cl)cc1Cl ; method: MTT ; value: 405 µM
CC#Cc1cn([C@@H]2O[C@H](COP(=O)(O)OCC)[C@@H](O)[C@@H]2O)c(=O)[nH]c1=O ; value: >250 µM
CCCCCCC/C=C\C(O)C#CC#CC(O)CCOC ; value: >120 µg/mL
Nc1nc(N)nc(-c2ccc(OC(c3ccccc3)c3ccccc3)cc2)n1 ; method: MTT ; value: 417 µM
CCCSc1nsc(-c2ccccc2)c1C(N)=O ; value: 300 µg/mL
COc1ccc(CCC(=O)c2ccc(Oc3ccccc3)c(O)c2)cc1 ; method: MTT ; value: >300 µg/mL
CCC(Oc1ccc(-c2nc(N)nc(N)n2)cc1)c1ccccc1 ; method: MTT ; value: 324 µM
CCCOc1ccc(N(C)c2cc(C)nc3ccc(Cl)cc23)cc1 ; value: <0.2 µM
CCCCN(C)CCNc1cc(C)nc(Nc2nc3ccc(Cl)cc3[nH]2)n1 ; value: 2.7 µg/mL
Cc1nc(-c2ccc(Cl)cc2)sc1-c1csc(-c2ccc(F)cc2)n1 ; method: sulforhodamine ; value: >80 µM
CC#Cc1cn([C@@H]2O[C@H](CO)[C@@H](O)[C@@H]2O)c(=O)[nH]c1=O ; value: >500 µM
CO[C@H]1/C=C/O[C@@]2(C)Oc3c(C)c(O)c4c(O)c(c(/C=N/N5CCN(C)CC5)c(O)c4c3C2=O)NC(=O)/C(C)=C\C=C\[C@H](C)[C@H](O)[C@@H](C)[C@@H](O)[C@@H](C)[C@H](OC(C)=O)[C@@H]1C ; method: MTT ; value: >300 µg/mL
O=C1N(c2nncs2)CCN1[N+](=O)[O-] ; value: 86.4 µg/mL
Nc1ccn([C@H]2CS[C@H](CO)O2)c(=O)n1 ; value: >100 µM
CC(Oc1ccc(-c2nc(N)nc(N)n2)cc1)c1ccc(F)cc1 ; method: MTT ; value: 344 µM
CC(O)C1(O)C(O)CC(OC2c3cc4c(c(O)c3[C@@H]3C[C@@]2(C)OC32C=c3cc[nH]c3=N2)C(=O)c2cccc(O)c2C4=O)OC1C ; value: 1.9 µg/mL
O=c1[nH]cc(F)c(=O)[nH]1 ; value: 6.81 µM
NC1=Nc2c(ncn2CCC(/C=C/P(=O)(O)O)CO)C(=O)C1 ; value: >250 µM
C/C(=N\NC(=O)c1ccncc1)c1ccc(NC(=S)Nc2ccc(F)cc2)cc1 ; value: >153.4 µM
Nc1nc(N)nc(-c2ccc(OCc3ccc(F)cc3)cc2)n1 ; method: MTT ; value: 337 µM
OC1/C(=C/c2ccco2)CNC/C1=C\c1ccco1 ; method: MTT ; value: 400 µg/mL
CN1Cc2c(ccc3c2OCO3)-c2ccc3cc4c(cc3c21)OCO4 ; method: sulforhodamine ; value: >3.33 µg/mL
CCN(CC)CCNc1c(OC)cc(C)c2sc3ccccc3c(=O)c12.O=C(O)/C=C/C(=O)O ; value: 5 µg/mL
O=c1[nH]cnc2c1ncn2[C@@H]1O[C@@H](CO)C=C1F ; value: >100 µM
C/C=C1\[C@H](OC2O[C@H](CO)[C@@H](O)[C@H](O)[C@H]2O)OC=C(C(=O)O)[C@H]1CC(=O)OCC(OCC)c1ccc(O)c(O)c1 ; value: 166.7 µM
CCc1ccc2c(c1)[nH]c1ccc(N)cc12 ; value: 62 µM
Nc1nc(N)nc(-c2ccc(OCc3ccc(Cl)cc3)cc2)n1 ; method: MTT ; value: 333 µM
CCCCN(CCCC)/N=C/C1=C2NC(=O)/C(C)=C\C=C/C(OC)C(OC(N)=O)/C(C)=C/C(C)C(O)C(OC)CC(C)CC(=C(OC)C1=O)C2=O ; value: 5.65 µg/mL
Oc1cc(C(O)CCc2ccc(Cl)cc2)ccc1Oc1ccccc1 ; method: MTT ; value: >300 µg/mL
NC(=S)NN=C1/C(=C/c2ccco2)CNC/C1=C\c1ccco1 ; method: MTT ; value: 402 µg/mL
Nc1nc(=O)n([C@@H]2C=C[C@H](CO)O2)cc1F ; value: 9.4 µM
COc1ccc2[nH]c3c(C)c4ccncc4c(C)c3c2c1 ; value: 0.4 µg/mL
Cc1ccc2c(c1)[nH]c1ccccc12 ; value: >128 µM
COc1ccc(-n2sc3ncc(-c4ccccc4)cc3c2=O)cc1 ; value: >10 µg/mL
CO[C@H]1/C=C/O[C@@]2(C)Oc3c(C)c(O)c4c(O)c(c(/C=N/N5CCN(C)CC5)c(O)c4c3C2=O)NC(=O)/C(C)=C\C=C\[C@H](C)[C@H](O)[C@@H](C)[C@@H](O)[C@@H](C)[C@H](OC(C)=O)[C@@H]1C ; method: MTS / absorbance ; value: 121 µM
Cc1nc(-c2ccc(F)cc2)sc1-c1csc(-c2ccc(F)c(Cl)c2)n1 ; method: sulforhodamine ; value: >80 µM
Nc1nc(F)nc2c1ncn2[C@@H]1O[C@H](CO)[C@H]1O ; value: 201 µg/mL
Cc1ccc(O)c(O)c1 ; value: 11.3 µg/mL
COC(=O)c1c(SC)nsc1-c1ccccc1 ; value: 100 µg/mL
Nc1ncnc2c1ncn2CCOCP(=O)(O)O ; method: MTT / absorbance ; value: 30 µM
CC(C)C1=CC2=CC(=O)[C@H]3C(C)(C)CCC[C@]3(C)C2=C(O)C1=O ; value: 0.7 µg/mL
O=C1/C(=C/c2ccco2)CNC/C1=C\c1ccco1 ; method: MTT ; value: 352 µg/mL
COc1ccc2c3c([nH]c2c1)C(C)=NCC3 ; method: MTT ; value: 33.33 µg/mL
COc1ccc2c(c1)[nH]c1c3ccoc3c(C=O)cc21 ; value: 27 µM
Cc1ccc(CCC(O)c2ccc(Oc3ccccc3)c(O)c2)cc1 ; method: MTT ; value: >300 µg/mL
CSc1nsc(-c2ccccc2)c1C#N ; value: 20 µg/mL
Brc1ccc2[nH]c3ccc(Br)cc3c2c1 ; value: >128 µM
CC(CN1CCN(CCOCCO)CC1)CN1c2ccccc2Sc2ccc(Cl)cc21 ; value: 5.94 µg/mL
CC(Oc1ccc(-c2nc(N)nc(N)n2)cc1)c1ccccc1 ; method: MTT ; value: 315.6 µM
CO[C@H]1/C=C/O[C@@]2(C)Oc3c(C)c(O)c4c(O)c(c5[nH]cnc5c4c3C2=O)NC(=O)/C(C)=C\C=C\[C@H](C)[C@H](O)[C@@H](C)[C@@H](O)[C@@H](C)[C@H](OC(C)=O)[C@@H]1C ; value: >62.5 µg/mL
COc1cccc(COc2ccc(-c3nc(N)nc(N)n3)cc2)c1 ; method: MTT ; value: 504.1 µM
COc1ccc(NC(=S)Nc2ccc(/C(C)=N/NC(=O)c3ccncc3)cc2)cc1 ; value: >149 µM
O=C(CCc1ccc(Cl)cc1)c1ccc(Oc2ccccc2)c(O)c1 ; method: MTT ; value: >300 µg/mL
CCOC(=O)C(NC(=O)CC(C)C)(N1CCN(c2cc3c(cc2F)c(=O)c(C(=O)O)cn3C2CC2)CC1)C(F)(F)F ; value: >10 µg/mL
CC(=O)/C(N=Nc1ccc(C(=O)N/N=C/c2ccc([N+](=O)[O-])o2)cc1)=C(\C)O ; value: 0.32 µg/mL
FC(F)(F)c1ccc2c(c1)N(CCCN1CCN(C3CC3)CC1)c1ccccc1S2 ; value: 9 µg/mL
COc1c2c(cc3ccoc13)C(=O)[C@H]1c3cc4c(cc3OC[C@H]1O2)OCO4 ; value: >50 µg/mL
CC[n+]1c(-c2ccccc2)c2cc(N)ccc2c2ccc(N)cc21 ; value: 37.6 µg/mL
CCOC(=O)c1noc(/C=C/c2ccccc2)c1C(=O)c1ccccc1 ; value: 95.17 µM
Nc1ncnc2c1ncn2[C@H]1C[C@H](F)[C@@H](CO)O1 ; value: 36 µM
Cc1ccc(-c2nc(C)c(-c3csc(-c4ccc(Br)cc4)n3)s2)cc1 ; method: sulforhodamine ; value: >80 µM
CC(C)OC(=O)c1cc(-c2ccc(-c3ccccc3)cc2)on1 ; value: >128 µM
COc1cccc(N=C2/C(=C/c3ccco3)CNC/C2=C\c2ccco2)c1OC ; method: MTT ; value: 182 µg/mL
NC(=S)NNC(=O)/C(=C/c1ccc(/C=C(\NC(=O)c2ccccc2)C(=O)NNC(N)=S)cc1)NC(=O)c1ccccc1 ; value: 0.2 µg/mL
O=C1c2cc3ccoc3cc2O[C@@H]2COc3cc4c(cc3[C@]12O)OCO4 ; value: >50 µg/mL
Nc1ccn([C@H]2CS[C@@H](CO)O2)c(=O)n1 ; value: >100 µM
CN1CCc2cc3c(cc2C(=O)Cc2ccc4c(c2C1)OCO4)OCO3 ; method: sulforhodamine ; value: >3.5 µg/mL
Nc1nc(=O)n([C@H]2C=C[C@@H](CO)O2)cc1F ; value: >100 µM
COC1(Cc2ccc(O)cc2)OC(=O)C(O)=C1c1ccc(O)cc1 ; method: MTT ; value: 200 µg/mL
Cc1c2ccncc2c(C)c2c1[nH]c1ccccc12 ; method: sulforhodamine ; value: 0.093 µg/mL
Nc1nncc2c([C@H]3CC[C@@H](/C=C/P(=O)(O)O)C3(F)F)c[nH]c12 ; method: MTT ; value: 36 µM
CCCCCCCC1=C(C)C(=O)c2[nH]c3ccccc3c2C1=O ; value: >128 µM
CCOC(=O)c1cc(-c2cc3cccc(OC)c3o2)on1 ; value: >128 µM
CCC1[C@H](OC2O[C@H](CO)[C@@H](O)[C@H](O)[C@H]2O)OC=C(C(=O)O)[C@H]1CC(=O)OCCc1ccc(O)cc1 ; value: 250 µM
COc1cc(C=O)cc2c1[nH]c1ccccc12 ; value: >128 µM
Clc1ccc(N=C2/C(=C/c3ccco3)CNC/C2=C\c2ccco2)cc1 ; method: MTT ; value: 316 µg/mL
CCCCCCCn1c2ccccc2c2cc(CO)c(C)cc21 ; value: 30 µM
CC(C)OC(=O)c1cc(-c2cc3ccccc3s2)on1 ; value: >128 µM
CC#Cc1cn([C@@H]2O[C@H](COP(=O)(O)Oc3cccc(Cl)c3)[C@@H](O)[C@@H]2O)c(=O)[nH]c1=O ; value: 79 µM
Nc1ccn([C@H]2C=C[C@@H](CO)C2)c(=O)n1 ; value: >100 µM
O=C1C(=O)c2c(nc3ccccn23)-c2ccccc21 ; value: >62.5 µg/mL
COc1ccc(-c2cc3c(c(=O)o2)C[C@]2(O)[C@@]4(C)C(=O)C=CC(C)(C)[C@]4(O)CC[C@@]2(C)O3)cc1OC ; method: MTT ; value: 100 µg/mL
N#Cc1c(N2CCOCC2)nsc1-c1ccccc1 ; value: 1 µg/mL
Fc1ccccc1N=C1/C(=C/c2ccco2)CNC/C1=C\c1ccco1 ; method: MTT ; value: 318 µg/mL
C/C=C1/[C@H](O[C@@H]2O[C@H](CO)[C@@H](O)[C@H](O)[C@H]2O)OC=C(C(=O)OC)[C@H]1CC(=O)OCCc1ccc(O)c(O)c1 ; value: 213.4 µM
O=C1C=C(Nc2ccccc2)c2ccccc2C1=O ; value: 3.38 µg/mL
NC1=Nc2c(ncn2CCC/C=C/P(=O)(O)O)C(=O)C1 ; value: 250 µM
O=c1[nH]c(=O)n([C@H]2C[C@H](O)[C@@H](CO)O2)cc1C12B3B4B5B6B(B3B1B42)B1B5C61 ; value: 17.3 µM
Cc1c2cnccc2c(C)c2c1c1ccccc1n2CCNCc1ccccc1 ; value: 0.32 µg/mL
NC(=S)N=C1/C(=C/c2ccco2)CNC/C1=C\c1ccco1 ; method: MTT ; value: 500 µg/mL
N[C@@H]1CONC1=O ; method: MTT ; value: >62.5 µg/mL
c1ccc(-c2oc3ccc4ccccc4c3c2-c2ccc(OCCN3CCCC3)cc2)cc1 ; value: 2.1 µg/mL
COc1ccc(COc2cc(-c3nc(N)nc(N)n3)ccc2OC)cc1 ; method: MTT ; value: 399 µM
OC(c1cc(-c2ccc(Cl)c(Cl)c2)nc2ccccc12)C1CCCCN1 ; value: 2 µg/mL
Cc1nc(-c2ccccc2)sc1-c1csc(-c2ccc(F)cc2)n1 ; method: sulforhodamine ; value: >80 µM
NC(=O)c1nc(F)c[nH]c1=O ; value: >1000 µg/mL
O=c1[nH]cnc2c1ncn2[C@H]1O[C@@H](CO)C=C1F ; value: >100 µM

For reference, 5 entries again:

SMILES	method	value
OC1/C(=C/c2ccco2)CNC/C1=C\c1ccco1	MTT	400 µg/mL
CCC1[C@H](OC2O[C@H](CO)[C@@H](O)[C@H](O)[C@H]2O)OC=C(C(=O)O)[C@H]1CC(=O)OCCc1ccc(O)cc1	-	250 µM
CCCCCCCn1c2ccccc2c2cc(CO)c(C)cc21	-	30 µM
c1ccc(-c2oc3ccc4ccccc4c3c2-c2ccc(OCCN3CCCC3)cc2)cc1	-	2.1 µg/mL
Cc1c2cnccc2c(C)c2c1c1ccccc1n2CCNCc1ccccc1	-	0.32 µg/mL